Anti-infective test results gathered from many reports (values: NIAID ChemDB through PubChem).

Shared fields: growth or infection tests; organism: HIV-1

Blank or dashed fields: not listed here. ECn: concentration that inhibits the pathogen or its effect by n%. Two numbers with a dash give a range or band. Neighbouring rows are from separate reports.

compound | strain | cells | read by | changes | read-out | result
Cc1cc2cn[nH]c2cc1NC(=O)COc1ccc(Cl)cc1C(=O)c1cccc(C#N)c1 | HXB2 | HeLa + HELA CD4+ | β-galactosidase | RT-V108I | EC50 | 0.101–1 µM
CCc1c(Cc2ccccc2C)n(COCC#Cc2ccccc2)c(=O)[nH]c1=O | IIIB | MT-4 | MTT | K103N + Y181C | EC50 | >26 µM
COc1ccnc2[nH]cc(C(=O)C(=O)N3CCN(C(=O)c4ccccc4)C[C@H]3C)c12 | LAI(GP120-M426L) Recombinant | MT-2 | RT activity | GP120-M426L | EC50 | 0.462 µM
Cc1cc(S(N)(=O)=O)ccc1NC(=O)COc1ccc(Cl)cc1C(=O)c1cc(F)cc(F)c1 | HXB2 | HeLa + HELA CD4+ | β-galactosidase | RT-V106I Y181C | EC50 | 0.011–0.1 µM
Cc1ccc(C)c(CS(=O)(=O)c2cccc[n+]2[O-])c1 | IIIB | CEM | syncytia | RT-L100I | EC50 | 10 µg/mL
O=C(O)c1cc(-n2cccc2)ccc1Cl | 94UG103 X4R5 CLADE A | PBMC + MT-2 | p24 | - | EC50 | 35.77 µM
CC(C)=CCOc1cc(NC(=S)c2ccoc2C)ccc1Cl | IIIB | CEM | syncytia | RT-L100I | EC50 | 0.02 µg/mL
Cc1cc2[nH]cnc2cc1NC(=O)COc1ccc(Cl)cc1C(=O)c1cc(F)cc(C(F)(F)F)c1 | HXB2 | HeLa + HELA CD4+ | β-galactosidase | RT-V106I | EC50 | <0.01 µM
N#Cc1cc(Cl)cc(Oc2c(Br)ccc(CC(=O)Nc3ccc(S(N)(=O)=O)cc3Cl)c2F)c1 | HXB2D | MT-4 | - | Wild type | EC50 | 0.0013 µM
Cc1ccc(C)c(CS(=O)(=O)c2ccccn2)c1 | IIIB | MT-2 | syncytia | - | EC50 | 8.8 µg/mL
Cc1cc(S(N)(=O)=O)ccc1NC(=O)COc1ccc(Cl)cc1C(=O)c1cc(Cl)cc(Cl)c1 | IIIB | MT-4 | cytopathic effect / propidium iodide | - | EC50 | <0.01 µM
CCc1c(Cc2cc(C)cc(C)c2)n(COCC#Cc2ccc(CO)cc2)c(=O)[nH]c1=O | IIIB | MT-4 | MTT | EFV-resistant (K103R V179D P225H) | EC50 | 10 µM
Cc1ccc(C)c(C(Cl)S(=O)(=O)c2cc(C)cc[n+]2[O-])c1 | RF | CEM | syncytia | - | EC50 | 1 µg/mL
CCC(C)OC(=O)c1cccn1S(=O)(=O)c1cc(Cl)ccc1N | IIIB | MT-4 | cytopathic effect / MTT | - | EC50 | 0.9 µM
CCc1c(Cc2cc(C)cc(C)c2)n(COCC#Cc2ccc(C=O)cc2)c(=O)[nH]c1=O | IIIB | MT-4 | MTT | Y181C | EC50 | 1.7 µM
O=C1c2c(O)c(=O)n(CC3CCCCC3)c(=S)n2CCN1Cc1ccc(F)cc1 | - | MT-4 | p24 | - | EC95 | <10 µM
Nc1nccc2c1ncn2[C@@H]1O[C@H](CO)[C@@H](O)[C@H]1O | 18190 unpaired | PBMC | p24 | - | EC50 | 0.127 µM
CC(C)=CCOc1cc(NC(=S)c2ccsc2C)ccc1Cl | NL4-3 (RT V106I) | CEM + CEM-SS | cytopathic effect / XTT | RT-V106I | EC50 | 0.08 µM
Cc1cc(C#N)cc(C(=O)c2cc(Cl)ccc2OCC(=O)Nc2ccc(OCCCN3CC=CC3)cc2C)c1 | HXB2 | HeLa + HELA CD4+ | β-galactosidase | RT-G190A | EC50 | <0.01 µM
CCc1c(Cc2ccccc2C)n(COCC#CC2c3ccccc3-c3ccccc32)c(=O)[nH]c1=O | IIIB | MT-4 | MTT | EFV-resistant (K103R V179D P225H) | EC50 | >50 µM
Nc1ccn([C@@H]2CS[C@H](CO)O2)c(=O)n1 | NL4-3 | TZM-bl | luciferase | R263K | EC50 | 0.00037 µM
CN(Cc1ccccc1)C(=O)c1cccn1S(=O)(=O)c1cc(Cl)ccc1[N+](=O)[O-] | IIIB | MT-4 | cytopathic effect / MTT | - | EC50 | >17 µM
CCN1c2ncc(CCOc3ccc(C(=O)NC(C)(C)CC(=O)O)cc3C)cc2C(=O)N(C)c2cccnc21 | IIIB | C8166 | p24 | - | EC50 | <0.01 µM
CCc1c(Cc2cc(C)cc(C)c2)n(COCc2ccc(C#CCO)cc2)c(=O)[nH]c1=O | IIIB | MT-4 | MTT | WT | EC50 | 0.006 µM
CC(C)=CCOc1cc(NC(=S)c2ccoc2C)ccc1Cl | BaL | MAC | cytopathic effect / XTT | - | EC50 | 0.03 µM
CCc1cc(C#N)cc(C(=O)c2cc(Cl)ccc2OCC(=O)Nc2ccc(S(N)(=O)=O)cc2C)c1 | HXB2 (RT-K103N Y181C) Recombinant | HeLa + HELA CD4+ | β-galactosidase | RT-K103N Y181C | EC50 | <0.01 µM
O=C(OC1CCCC1)c1cccn1S(=O)(=O)c1cc(Cl)ccc1[N+](=O)[O-] | IIIB | MT-4 | cytopathic effect / MTT | - | EC50 | >11 µM
O=c1oc2c(O)c(O)cc3c(=O)oc4c(O)c(O)cc1c4c23 | IIIB | MT-4 | cytopathic effect / MTT | - | EC50 | >100 µg/mL
CC(C)n1c(=O)c(O)c2n(c1=O)C(COCc1ccccc1)CN(Cc1ccc(F)cc1)C2=O | - | MT-4 | p24 | - | EC95 | <10 µM
CCc1c(Cc2cc(C)cc(C)c2)n(COCC#Cc2cccs2)c(=O)[nH]c1=O | IIIB | MT-4 | MTT | Y181C | EC50 | 2.5 µM
CON(C)CCC1CN(Cc2ccc(F)cc2)C(=O)c2c(O)c(=O)n(C(C)C)c(=O)n21 | - | MT-4 | p24 | - | EC50 | <10 µM
NC(=O)c1cccn1S(=O)(=O)c1cc(Cl)ccc1N | IIIB | MT-4 | cytopathic effect / MTT | - | EC50 | 15 µM
Cc1ccc(C)c(CSc2c(Cl)ccc[n+]2[O-])c1 | IIIB | CEM | syncytia | RT-K103N | EC50 | 4.8 µg/mL
Cc1cc(N2CCS(=O)CC2)ccc1NC(=O)COc1ccc(Cl)cc1C(=O)c1cccs1 | HXB2 | HeLa + HELA CD4+ | β-galactosidase | RT-K103N | EC50 | 0.011–0.1 µM
CCN1c2ncc(CCOc3ccc(C(=O)Nc4nc(CC(=O)O)cs4)cc3C)cc2C(=O)N(C)c2cccnc21 | - | C8166 | p24 | RT-K103N Y181C | EC50 | >0.05 µM
Cc1cccc(CS(=O)(=O)c2cccc[n+]2[O-])c1 | IIIB | CEM | syncytia | RT-Y181C | EC50 | >20 µg/mL
CCC[C@@]1(CCc2ccccc2)CC(O)=C([C@H](CC)c2cccc(NS(=O)(=O)c3ccc(C(F)(F)F)cn3)c2)C(=O)O1 | T13436 | MT-4 | reporter gene | V32I L76V | EC50 | 180 nM
Nc1nccc2c1ncn2[C@@H]1C=C(CO)[C@@H](O)[C@H]1O | A012 PRE-AZT | PBMC | p24 | - | EC50 | 0.0104 µM
Cc1cc(S(N)(=O)=O)ccc1NC(=O)COc1ccc(Cl)cc1C(=O)c1cc(Cl)cc(C#N)c1 | HXB2 | HeLa + HELA CD4+ | β-galactosidase | RT-V106I | EC50 | <0.01 µM
CCN1c2ncc(CCOc3ccc(-c4cccc(C(=O)O)c4)cc3C)cc2C(=O)N(C)c2cccnc21 | IIIB | C8166 | p24 | - | EC50 | <0.01 µM
N#Cc1cccn1S(=O)(=O)c1cc(Cl)ccc1[N+](=O)[O-] | IIIB | MT-4 | cytopathic effect / MTT | - | EC50 | >1.4 µM
Cc1cc(S(N)(=O)=O)ccc1NC(=O)COc1ccc(Cl)cc1C(=O)c1cc(F)cc(C#N)c1 | HXB2 | HeLa + HELA CD4+ | β-galactosidase | RT-V108I Y181C | EC50 | <0.01 µM
Cc1ccc(C)c(C(C)S(=O)(=O)c2c(C)ccc[n+]2[O-])c1 | HE | CEM | syncytia | - | EC50 | 0.4 µg/mL
CCN1c2ncc(CCOc3ccc(-c4csc(C(=O)O)c4)cc3C)cc2C(=O)N(C)c2cccnc21 | IIIB | C8166 | p24 | - | EC50 | <0.01 µM
CC(C)=CCOc1cc(NC(=S)c2ccsc2C)ccc1Cl | NL4-3 | CEM + CEM-SS | p24 | RT-V179D | EC50 | 0.006 µM
CC(C)n1c(=O)c(O)c2n(c1=O)C(CCN1CCOCC1)CN(Cc1ccc(F)cc1)C2=O | - | MT-4 | p24 | - | EC95 | <10 µM

The first 4 rows once more:

compound | strain | cells | read by | changes | read-out | result
Cc1cc2cn[nH]c2cc1NC(=O)COc1ccc(Cl)cc1C(=O)c1cccc(C#N)c1 | HXB2 | HeLa + HELA CD4+ | β-galactosidase | RT-V108I | EC50 | 0.101–1 µM
CCc1c(Cc2ccccc2C)n(COCC#Cc2ccccc2)c(=O)[nH]c1=O | IIIB | MT-4 | MTT | K103N + Y181C | EC50 | >26 µM
COc1ccnc2[nH]cc(C(=O)C(=O)N3CCN(C(=O)c4ccccc4)C[C@H]3C)c12 | LAI(GP120-M426L) Recombinant | MT-2 | RT activity | GP120-M426L | EC50 | 0.462 µM
Cc1cc(S(N)(=O)=O)ccc1NC(=O)COc1ccc(Cl)cc1C(=O)c1cc(F)cc(F)c1 | HXB2 | HeLa + HELA CD4+ | β-galactosidase | RT-V106I Y181C | EC50 | 0.011–0.1 µM